Reference: patent publication US20110052564

How the values were obtained:
[1] = biological target: crossbeta E2 form cE2-B (UniProt P21530)
[2] = biological target: crossbeta E2 form SEC-E2 (UniProt P21530)

Substance: tissue type plasminogen activator (tPA; Actilyse, Boehringer-Ingelheim)
- tPA/plasminogen activating potency at 50 ug/ml E2 [1]: an increase in tPA/plasminogen activating potency is observed for cE2-B
- tPA/plasminogen activating potency at 50 ug/ml E2 [2]: with SEC-E2 only one third of this activity remains
